Compound potency records, mixed from different reports. Data source: NIAID ChemDB in PubChem.

Shared fields: tests in culture; organism: Mycobacterium tuberculosis

An empty or dashed field is not shown.

structure | dose | endpoint | strain or isolate | method | cells | result
CCOC(=O)Nc1nc(NC(=O)OCC)c([N+](=O)[O-])c(NC(C)/C(=N/O)c2ccccc2)c1[N+](=O)[O-] |  | EC50 | H37Rv |  |  | >12.5 µg/mL
c1ccc2c(c1)nc1cc(NC3CCCCC3)c(=NC3CCCCC3)cc-1n2C1CCCCC1 |  | MIC | CS-R |  |  | 3.1 µg/mL
CCN(CC)Cc1cc(CN(CC)CC)c(O)c(Nc2c3ccc(Cl)cc3nc3ccc(OC)cc23)c1 |  | MIC | H37Rv |  |  | >100 µg/mL
Cc1ccccc1N1CCN(C(=O)c2ccccn2)CC1 |  | MIC bound | H37Rv | resazurin |  | >6.25 µg/mL
CC(C)c1ccc2c(c1)CC[C@H]1[C@](C)(CNCCN[C@H](CO)Cc3ccc(Cl)cc3)CCC[C@]21C |  | MIC |  |  |  | 25 µM
O=C1C=C(S(=O)(=O)O)c2ccccc2C1=O |  | MIC | H37Rv |  |  | 50 µg/mL
CC(=O)Nn1c(N)nc2cc(C)ccc21 | 12.5 µg/mL | inhibition | H37Rv | BACTEC |  | 10%
CCOC(=O)Nc1cc2c([nH]c(=S)n2/N=C/c2ccc3c(c2)OCO3)c(N)n1 |  | EC50 | H37Rv |  |  | >12.5 µg/mL
COc1ccc2ncccc2c1 |  | MIC | H37Rv |  |  | >100 µg/mL
NCC[C@H](O)C(=O)N[C@@H]1C[C@H](N)[C@@H](O[C@H]2O[C@H](CN)[C@@H](O)[C@H](O)[C@H]2O)[C@H](O)[C@H]1O[C@H]1O[C@H](CO)[C@@H](O)[C@H](N)[C@H]1O |  | MIC | TN2229 (N2) |  |  | >256 µg/mL
COC(=O)NC1(C(=O)O)CCCC1 | 6.25 µg/mL | inhibition | H37Rv | resazurin |  | 17%
CCOC(=O)Nc1cc(N)c2nc(-c3ccccc3)c(N)nc2n1 |  | EC50 | H37Rv |  |  | >12.5 µg/mL
Cc1cc(O)ccc1NCc1ccccc1.Cl |  | MIC | H37Rv |  |  | >100 µg/mL
c1ccc(CCCNCCNCC(c2ccccc2)c2ccccc2)cc1 |  | MIC |  |  |  | 37.5 µM
Cc1cc(O)ccc1C=O |  | MIC | H37Rv |  |  | >100 µg/mL
CCOC(=O)Nc1cc(N)c([N+](=O)[O-])c(NC/C(CNc2ccc(C(=O)OCC)cc2)=N\O)n1 | 12.5 µg/mL | inhibition | H37Rv |  |  | 0%
O=C(O)/C=C/C=C/c1ccccc1 |  | MIC | H37Rv |  |  | 50 µg/mL
Cc1nnc2n(N)c(=O)c(CC(=O)c3ccc(F)cc3)nn12 | 12.5 µg/mL | inhibition | H37Rv | BACTEC |  | 5%
OCC(O)COc1ccccc1 |  | MIC | H37Rv |  |  | >100 µg/mL
COc1ccccc1CCNCCNCc1ccccc1F |  | MIC |  |  |  | 50 µM
CCn1c2ccccc2nc2cc3c(cc21)c(Cl)c(=O)c1ccccc13 |  | MIC bound | H37Rv | BACTEC |  | ≤12.5 µg/mL
O=C(O)/C(=C\c1ccc2c(c1)OCO2)NC(=O)c1ccccc1 |  | MIC | H37Rv |  |  | >100 µg/mL
CCCCCNCCNC12CC3CC(CC(C3)C1)C2 |  | MIC |  |  |  | 37.5 µM
CC(C)c1ccc2c(c1)CC[C@H]1[C@](C)(CNCCNCCc3ccc(O)c(O)c3)CCC[C@]21C |  | MIC |  |  |  | 50 µM
O=C(O)CCCCCCCC(=O)O |  | MIC | H37Rv |  |  | >100 µg/mL
CCOc1ccccc1CNCCNCCc1cc(OC)ccc1OC |  | MIC |  |  |  | 50 µM
O=C1C2C3C=CC(O3)C2C(=O)N1Nc1ccccc1 |  | MIC bound | H37Rv | BACTEC |  | >12.5 µg/mL
CCCCC(CC)CN1CN(CC(CC)CCCC)CC(C)(NCCNC(C)CCc2ccccc2)C1 |  | MIC |  |  |  | 25 µM
CCC1NC(=O)C(NC(=O)c2ncccc2O)C(C)OC(=O)C(c2ccccc2)NC(=O)C2CC(=O)CCN2C(=O)C(Cc2ccccc2)N(C)C(=O)C2CCCN2C1=O |  | MIC bound | H37Rv | BACTEC |  | >12.5 µg/mL
C/C=C/C(=O)OC |  | MIC | H37Rv |  |  | >100 µg/mL
CCOC(=O)n1[nH][nH]c2c(c(=O)n(C)c(=O)n2C)n1C(=O)OCC | 128 µg/mL | inhibition | H37Rv | BACTEC |  | 93%
CCOC(=O)Nc1cc(N)c2nnsc2n1 |  | EC50 | H37Rv |  |  | >12.5 µg/mL
CCCCC(CC)CN1CN(CC(CC)CCCC)CC(C)(NCCNCCCOCC)C1 |  | MIC |  |  |  | 12.5 µM
CC/C(C)=C1\OC(=O)[C@H](C)[C@@H](O)[C@H](Cc2cccnc2)NC(=O)[C@@H](NC(=O)c2ncccc2O)[C@@H](C)OC1=O |  | MIC | H37Rv | BACTEC |  | ≥12.5 µg/mL
CC(=O)NC(N)=O |  | MIC | H37Rv |  |  | >100 µg/mL
CCCCC(CC)CN1CN(CC(CC)CCCC)CC(C)(NCCNC2CCCCCCC2)C1 |  | MIC |  |  |  | 12.5 µM
CCN(CC)CCN(C)c1ccc(CO)c2sc3cc(Cl)ccc3c(=O)c12 |  | MIC | H37Rv | BACTEC |  | 12.5 µg/mL
CCC(CCOC(=O)c1ccc([N+](=O)[O-])cc1)N1CCCCC1.Cl |  | MIC | H37Rv |  |  | >100 µg/mL
CCN(CCO)CCNc1ccc(CO)c2sc3cc(Cl)ccc3c(=O)c12 |  | MIC | H37Rv | BACTEC | VERO | 12.5 µg/mL
O=C(c1ccccc1)c1cccc(Br)c1 |  | MIC | H37Rv |  |  | >100 µg/mL
CCCCN(C)/N=N/c1nc[nH]c1C(N)=O |  | MIC bound | H37Rv | BACTEC |  | ≤12.5 µg/mL
CO[C@H]1/C=C/O[C@@]2(C)Oc3c(C)c(O)c4c(=O)c(c5oc6cc(N7CCN(C(C)C)CC7)cc(=O)c6nc5c4c3=C2O)NC(=O)/C(C)=C\C=C\[C@H](C)[C@H](O)[C@@H](C)[C@@H](O)[C@@H](C)[C@H](OC(C)=O)[C@@H]1C |  | MBC | 2831 (rifampin-sensitive) |  |  | 0.05 µg/mL
Cc1ccc(S(=O)(=O)c2ccccc2[N+](=O)[O-])cc1 |  | MIC | H37Rv | BACTEC |  | ≥12.5 µg/mL
CC(C)c1ccc2c(c1)CC[C@H]1[C@](C)(CNCCNC3CCc4ccccc43)CCC[C@]21C |  | MIC |  |  |  | 25 µM
Oc1ccc(O)c2nc3ccccc3nc12 |  | MIC bound | H37Rv | BACTEC |  | >12.5 µg/mL
O=c1cc(CCl)c2cccc(Cl)c2[nH]1 |  | MIC | H37Rv |  |  | >100 µg/mL
COC(=O)C1=C(N2CCCC2)[C@H]2c3ccccc3S[C@@]12C(=O)OC | 12.5 µg/mL | inhibition | H37Rv | BACTEC |  | 0%
OCc1ccccc1Sc1ccccc1CNCCNCC1(O)CCCCC1 |  | MIC |  |  |  | 50 µM
Oc1c(Cl)cc(Cl)cc1Cl |  | MIC | H37Rv |  |  | >100 µg/mL
Cc1cc(-c2cccs2)oc(=O)c1NC(=O)c1cnccn1 | 6.25 µg/mL | inhibition | H37Rv | BACTEC |  | 33%
CO[C@H]1/C=C/O[C@@]2(C)Oc3c(C)c(O)c4c(O)c(c(/C=N/N5CCN(C/C=C/c6ccccc6)CC5)c(O)c4c3C2=O)NC(=O)/C(C)=C\C=C\[C@H](C)[C@H](O)[C@@H](C)[C@@H](O)[C@@H](C)[C@H](OC(C)=O)[C@@H]1C |  | MBC | 2230 (rifampin-resistant) |  |  | 0.8 µg/mL
O=C(O)CCCc1c[nH]c2ccccc12 |  | MIC | H37Rv |  |  | 100 µg/mL
Oc1ccc(CCNCCNCc2ccccc2)cc1 |  | MIC |  |  |  | 50 µM
C/C(=N\NC(N)=O)c1ccccc1 |  | MIC | H37Rv |  |  | >100 µg/mL
COc1cc2c(cc1OC)C(=O)Cc1ccc3c(c1CN(C)CC2)OCO3 |  | MIC | H37Rv | BACTEC |  | ≥128 µg/mL
CN(C(N)=S)c1cccc2ccccc12 |  | MIC | H37Rv |  |  | 100 µg/mL
C[C@H](N)C(=O)N[C@@H]1[C@H]2C(=C(O)C[C@@H](O)[C@@H]2O)C(=O)O[C@]1(C)C(Cl)Cl |  | MIC | INH-r |  |  | 0.8 µg/mL
COc1ccc(C(=O)SSC(=O)c2ccc(OC)cc2)cc1 |  | MIC | H37Rv |  |  | >100 µg/mL
CC(C)c1ccc2c(c1)CC[C@H]1[C@](C)(CNCCNC3CCCC3)CCC[C@]21C |  | MIC |  |  |  | 25 µM
Cc1coc(NS(=O)(=O)c2ccc(N=Nc3c(N)nc(N)[nH]c3=O)cc2)c1C |  | MIC bound | H37Rv | BACTEC |  | >12.5 µg/mL
O=S1c2ccccc2Oc2ccccc21 |  | MIC | H37Rv |  |  | 100 µg/mL

A second listing of 9 rows from above:

structure | dose | endpoint | strain or isolate | method | cells | result
CCCCN(C)/N=N/c1nc[nH]c1C(N)=O |  | MIC bound | H37Rv | BACTEC |  | ≤12.5 µg/mL
Cc1nnc2n(N)c(=O)c(CC(=O)c3ccc(F)cc3)nn12 | 12.5 µg/mL | inhibition | H37Rv | BACTEC |  | 5%
C/C=C/C(=O)OC |  | MIC | H37Rv |  |  | >100 µg/mL
CCOc1ccccc1CNCCNCCc1cc(OC)ccc1OC |  | MIC |  |  |  | 50 µM
Cc1ccccc1N1CCN(C(=O)c2ccccn2)CC1 |  | MIC bound | H37Rv | resazurin |  | >6.25 µg/mL
CC(=O)NC(N)=O |  | MIC | H37Rv |  |  | >100 µg/mL
CCCCC(CC)CN1CN(CC(CC)CCCC)CC(C)(NCCNC2CCCCCCC2)C1 |  | MIC |  |  |  | 12.5 µM
COC(=O)NC1(C(=O)O)CCCC1 | 6.25 µg/mL | inhibition | H37Rv | resazurin |  | 17%
c1ccc(CCCNCCNCC(c2ccccc2)c2ccccc2)cc1 |  | MIC |  |  |  | 37.5 µM

Neighbouring rows are from separate reports. MIC bound comes from a single tested concentration. Inhibition is in % at the dose shown (toxicity tests: loss of growth or viability). ECn: concentration that inhibits the pathogen or its effect by n%.